Compound potency records, mixed from different reports. Data source: NIAID ChemDB in PubChem.

Common to all: whole-cell or culture tests; agent: HIV-1; cells: CEM; method: syncytia; read-out: fold resistance

Fold resistance has wild type as its base. Conditions beyond the fields shown may differ between rows. An empty or dashed field is not shown.

| structure | strain or isolate | mutations | value |
|---|---|---|---|
| CC1=C(C(=O)Nc2cc(C(=O)OC(C)C)c(F)cc2F)SCCO1 | TSAO-resistant (RT E138K) | RT-E138K | >11.8 |
| CC1=C(C(=O)Nc2ccc(Cl)c(OCC=C(Cl)Cl)c2)SCCO1 | Pyridone-resistant (RT Y181C) | RT-Y181C | 1.67 |
| CCCOC(=S)Nc1ccc(Cl)c(C(=O)OC(C)C)c1 | - | RT-E138K | 13 |
| CC(C)c1c(Sc2ccccc2)n(COCc2ccccc2)c(=S)[nH]c1=O | IIIB | Nevirapine resistant (RT Y181C) | 50 |
| CC1=C(C(=O)Nc2cc(C(=O)OC(C)C)c(Cl)cc2F)SCCO1 | PYR-resistant (RT Y181C) | RT-Y181C | >15.4 |
| CCOCn1c(Sc2ccccc2)c(C(C)C)c(=O)[nH]c1=O | IIIB | RT-Y181I | >400 |
| C=C(Cl)COc1cc(NC(=S)c2ccsc2C)ccc1C#N | HEPT-resistant (RT Y188H) | RT-Y188H | 66.7 |
| CC(C)OC(=O)c1cc(NC(=S)OC(C)C)ccc1Cl | IIIB | RT-Y188H | 72.4 |
| CCCCC(CC)COC(=O)c1cc(NC(=S)OC(C)C)ccc1Cl | - | RT-Y181C | 81.4 |
| C/C(Cl)=C/COc1cc(NC(=O)c2ccoc2C)ccc1Cl | TIBO R82150-resistant (RT L100I) | RT-L100I | 15.6 |
| CCCCCOC(=O)c1cc(NC(=O)C2=C(C)OCCS2)ccc1Cl | Nevirapine-resistant (RT V106A) | RT-V106A | 16.7 |
| CC(C)OC(=O)Oc1cc(NC(=S)OC(C)C)ccc1Cl | - | RT-V106A | 8.76 |
| CC1=C(C(=O)Nc2ccc(Cl)c(C(=O)OC3CCCCC3C)c2)SCCO1 | TIBO-resistant (RT L100I) | RT-L100I | 35 |
| C/C=C/COc1cc(NC(=S)OC(C)C)ccc1Cl | - | RT-E138K | 2.5 |
| CCOCn1c(Sc2cc(C)cc(C)c2)c(CC)c(=O)[nH]c1=S | IIIB (TIBO 82150) (RT-L100I) | RT-L100I | 3.33 |
| CC1=C(C(=O)Nc2cccc(C(=O)OC(C)C)c2)SCCO1 | PYR-resistant (RT Y181C) | RT-Y181C | >2.5 |
| CC1=C(C(=O)Nc2ccc(Cl)c(C(=O)OC(C)C)c2)SCCO1 | IIIB | RT-V179D | 22.4 |
| Cc1sccc1C(=S)Nc1ccc(Cl)c(OCC=C(Cl)Cl)c1 | Pyridone-resistant (RT Y181C) | RT-Y181C | 32.9 |
| CCc1c(Sc2ccccc2)n(COCc2ccccc2)c(=S)[nH]c1=O | IIIB TIBO R82913-resistant (RT K103N) | RT-K103N | 217 |
| CCC(CC)COC(=O)c1cc(NC(=S)OC(C)C)ccc1Cl | - | RT-V106A | 28.3 |
| Cc1occc1C(=O)Nc1ccc(Cl)c(SCC=C(Cl)Cl)c1 | Pyridone-resistant (RT Y181C) | RT-Y181C | 21.5 |
| CSc1ccc(NC(=S)OC(C)C)cc1C(=O)OC(C)C | - | RT-V106A | 150 |
| COc1ccc(NC(=S)c2ccsc2C)cc1OCC=C(Cl)Cl | Pyridone-resistant (RT Y181C) | RT-Y181C | 26 |
| CC(C)OC(=S)Nc1ccc(Cl)c(C(=O)OC(C(C)C)C(C)C)c1 | - | RT-Y181C | >14.3 |
| CCOC(=O)c1cc(NC(=O)C2=C(C)OCCS2)ccc1Cl | Nevirapine-resistant (RT V106A) | RT-V106A | >100 |
| CC(C)OC(=S)Nc1ccc(Cl)c(C(=O)OC2CC2)c1 | - | RT-E138K | 16.3 |
| CCCCOC(=O)c1cc(NC(=O)C2=C(C)OCCS2)ccc1Cl | Nevirapine-resistant (RT V106A) | RT-V106A | 150 |
| CC(C)OC(=S)Nc1ccc(Cl)c(C(=O)OCc2ccccc2)c1 | - | RT-L100I | 15.7 |
| CCc1c(Sc2cc(C)cc(C)c2)n(COCCO)c(=S)[nH]c1=O | IIIB (TIBO 82150) (RT-L100I) | RT-L100I | 7.5 |
| CCOC(=O)c1cc(NC(=S)OC(C)C)ccc1Cl | - | RT-V106A | 167 |
| Cc1occc1C(=S)Nc1ccc(Cl)c(OCC=C(Cl)Cl)c1 | HEPT-resistant (RT Y188H) | RT-Y188H | 235 |
| CC1=C(C(=O)Nc2ccc(Cl)c(C(=O)OC(C)C)c2)SCCO1 | - | RT-E138K | ≥1330 |
| CC1=C(C(=O)Nc2ccc(Cl)c(C(=O)OCC3CCC3)c2)SCCO1 | PYR-resistant (RT Y181C) | RT-Y181C | 4.71 |

Again, the opening 2 rows:

structure	strain or isolate	mutations	value
CC1=C(C(=O)Nc2cc(C(=O)OC(C)C)c(F)cc2F)SCCO1	TSAO-resistant (RT E138K)	RT-E138K	>11.8
CC1=C(C(=O)Nc2ccc(Cl)c(OCC=C(Cl)Cl)c2)SCCO1	Pyridone-resistant (RT Y181C)	RT-Y181C	1.67